# What was measured:
# [1] = target: BG505 SOSIP.6R.664 (HIV-1 strain BG505); assay: SPR, single-cycle kinetics, trimer captured on immobilized 2G12, sCD4 injected
# [2] = target: BG505 SOSIP.6R.664 (HIV-1 strain BG505); assay: SPR single-cycle kinetics, trimer captured on immobilised 2G12, sCD4 injected, 1:1 Langmuir fit; standard error in parentheses
# [3] = target: BG505.DS-SOSIP.3mut.6R.664 (HIV-1 strain BG505); assay: SPR, single-cycle kinetics (as summed up in the conclusion)
# [4] = target: BG505.DS-SOSIP.3mut.6R.664 (HIV-1 strain BG505); assay: SPR, single-cycle kinetics, trimer captured on immobilized 2G12, sCD4 injected
# [5] = target: BG505.DS-SOSIP.6R.664 (HIV-1 strain BG505); assay: as above
# [6] = target: BG505.DS-SOSIP.3mut.6R.664 (HIV-1 strain BG505); assay: SPR single-cycle kinetics, trimer captured on immobilised 2G12, sCD4 injected, 1:1 Langmuir fit; standard error in parentheses
# [7] = target: BG505.DS-SOSIP.4mut.6R.664 (HIV-1 strain BG505); assay: as above
# [8] = target: BG505.DS-SOSIP.6R.664 (HIV-1 strain BG505); assay: as above
# [9] = target: DS-SOSIP.2mut; assay: as above
# [10] = target: DS-SOSIP.5mut; assay: as above
# [11] = target: DS-SOSIP.A329P (HIV-1 strain BG505); assay: as above
substance,measurement,setting,value
soluble CD4 (from UniProt P01730 26-396) (receptor),Kd,[1],1.4 nM
same,Kd,[2],1.08 nM
same,koff,[2],0.000112 s⁻¹
same,kon,[2],103000 M⁻¹ s⁻¹
soluble CD4 (from UniProt P01730 26-396) (receptor; other documents disagree on this pair),Kd,[3],400 nM
same,fold reduction of sCD4 binding affinity (Kd) against DS-SOSIP,[4],30 to 40 fold
same,Kd,[5],11 nM
same,Kd,[6],357 nM
same,koff,[6],0.0115 s⁻¹
same,kon,[6],32200 M⁻¹ s⁻¹
same,Kd,[7],363 nM
same,koff,[7],0.012 s⁻¹
same,kon,[7],33000 M⁻¹ s⁻¹
same,Kd,[8],11.3 nM
same,koff,[8],0.00111 s⁻¹
same,kon,[8],98200 M⁻¹ s⁻¹
same,Kd,[9],379 nM
same,koff,[9],0.0117 s⁻¹
same,kon,[9],30800 M⁻¹ s⁻¹
same,Kd,[10],400 nM
same,koff,[10],0.0142 s⁻¹
same,kon,[10],35400 M⁻¹ s⁻¹
same,Kd,[11],11.4 nM
same,koff,[11],0.0012 s⁻¹
same,kon,[11],105000 M⁻¹ s⁻¹

# — patent US20210188921A1
